Measurements from ChEMBL document CHEMBL5375988, “AcGlcAs: A Novel P53-Targeting Arsenical with Potent Cellular Uptake and Cancer Cell Selectivity” (J Med Chem, 2023).

Protein sequences, listed by entry. Tags and fused reporters are not part of them. Lines headed by an entry give the natural chain unless they say otherwise; changes in a name come on top.
UniProt P60484: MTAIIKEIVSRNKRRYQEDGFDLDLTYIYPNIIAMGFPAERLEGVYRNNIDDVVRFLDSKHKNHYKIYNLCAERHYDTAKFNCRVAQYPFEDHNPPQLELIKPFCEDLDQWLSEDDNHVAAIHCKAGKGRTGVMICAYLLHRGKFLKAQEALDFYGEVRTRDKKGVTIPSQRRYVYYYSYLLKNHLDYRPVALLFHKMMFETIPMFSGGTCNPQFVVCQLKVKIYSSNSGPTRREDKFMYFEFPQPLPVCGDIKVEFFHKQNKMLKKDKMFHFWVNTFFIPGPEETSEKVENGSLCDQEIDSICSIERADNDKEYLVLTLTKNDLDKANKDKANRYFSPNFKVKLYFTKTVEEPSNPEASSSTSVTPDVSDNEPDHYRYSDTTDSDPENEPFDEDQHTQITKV

Experiments:
[1] = test system: GTPase KRas (Homo sapiens), P01116 [G12C]; assay: Binding affinity to KRAS-G12C mutant (unknown origin) with exposed Cys12 assessed as increase in melting temperature at 1:15 ratio in HEPES at pH 7.5 by DSF analysis
[2] = biological target: Phosphatidylinositol 3,4,5-trisphosphate 3-phosphatase and dual-specificity protein phosphatase PTEN (Homo sapiens) (UniProt P60484); assay: Binding affinity to PTEN (unknown origin) with exposed Cys124 assessed as increase in melting temperature at 1:15 ratio in HEPES at pH 7.5 by DSF analysis
[3] = biological target: Replicase polyprotein 1ab (Severe acute respiratory syndrome coronavirus 2) (UniProt P0DTD1); assay: Binding affinity to SARS-CoV-2 MPro with exposed Cys145 assessed as increase in melting temperature at 1:15 ratio in HEPES at pH 7.5 by DSF analysis

Measured: Activity

I[As](I)I
inactive: all assays above

Activity calls are given as the source filed them.
